Measured values from ChEMBL document CHEMBL1148773 (J Med Chem, 2007).
pKi: −log10 of the molar value.

What was measured:
[1] = target: Human immunodeficiency virus type 1 protease (Human immunodeficiency virus 1, UniProt Q72874, I50V); assay: Inhibition of HIV1 protease I50V mutant
[2] = target: Human immunodeficiency virus type 1 protease (Human immunodeficiency virus 1, UniProt Q72874, D30N); assay: Inhibition of HIV1 protease D30N mutant
[3] = target: Human immunodeficiency virus type 1 protease (Human immunodeficiency virus 1, UniProt Q72874, I84V); assay: Inhibition of HIV1 protease I84V mutant
[4] = target: Human immunodeficiency virus type 1 protease (Human immunodeficiency virus 1, UniProt Q72874, V82A); assay: Inhibition of HIV1 protease V82A mutant

With `CC(C)CN(C[C@@H](O)[C@H](Cc1ccccc1)NC(=O)O[C@H]1CO[C@H]2OCC[C@H]21)S(=O)(=O)c1ccc2c(c1)OCO2` as the compound, how does the pKi [1] read?
The pKi was 8.68.

And the pKi [2]?
The pKi was 8.34.

What about the pKi [3] of the same compound?
Its pKi is 9.07.

And the pKi [4]?
The pKi was 9.10.
